Results: US20230399384A1 (University of Texas, published 2023)

Target: T1, S protein of MERS-CoV (MERS-CoV, UniProt K9N5Q8 18-1296)
T1 sequence: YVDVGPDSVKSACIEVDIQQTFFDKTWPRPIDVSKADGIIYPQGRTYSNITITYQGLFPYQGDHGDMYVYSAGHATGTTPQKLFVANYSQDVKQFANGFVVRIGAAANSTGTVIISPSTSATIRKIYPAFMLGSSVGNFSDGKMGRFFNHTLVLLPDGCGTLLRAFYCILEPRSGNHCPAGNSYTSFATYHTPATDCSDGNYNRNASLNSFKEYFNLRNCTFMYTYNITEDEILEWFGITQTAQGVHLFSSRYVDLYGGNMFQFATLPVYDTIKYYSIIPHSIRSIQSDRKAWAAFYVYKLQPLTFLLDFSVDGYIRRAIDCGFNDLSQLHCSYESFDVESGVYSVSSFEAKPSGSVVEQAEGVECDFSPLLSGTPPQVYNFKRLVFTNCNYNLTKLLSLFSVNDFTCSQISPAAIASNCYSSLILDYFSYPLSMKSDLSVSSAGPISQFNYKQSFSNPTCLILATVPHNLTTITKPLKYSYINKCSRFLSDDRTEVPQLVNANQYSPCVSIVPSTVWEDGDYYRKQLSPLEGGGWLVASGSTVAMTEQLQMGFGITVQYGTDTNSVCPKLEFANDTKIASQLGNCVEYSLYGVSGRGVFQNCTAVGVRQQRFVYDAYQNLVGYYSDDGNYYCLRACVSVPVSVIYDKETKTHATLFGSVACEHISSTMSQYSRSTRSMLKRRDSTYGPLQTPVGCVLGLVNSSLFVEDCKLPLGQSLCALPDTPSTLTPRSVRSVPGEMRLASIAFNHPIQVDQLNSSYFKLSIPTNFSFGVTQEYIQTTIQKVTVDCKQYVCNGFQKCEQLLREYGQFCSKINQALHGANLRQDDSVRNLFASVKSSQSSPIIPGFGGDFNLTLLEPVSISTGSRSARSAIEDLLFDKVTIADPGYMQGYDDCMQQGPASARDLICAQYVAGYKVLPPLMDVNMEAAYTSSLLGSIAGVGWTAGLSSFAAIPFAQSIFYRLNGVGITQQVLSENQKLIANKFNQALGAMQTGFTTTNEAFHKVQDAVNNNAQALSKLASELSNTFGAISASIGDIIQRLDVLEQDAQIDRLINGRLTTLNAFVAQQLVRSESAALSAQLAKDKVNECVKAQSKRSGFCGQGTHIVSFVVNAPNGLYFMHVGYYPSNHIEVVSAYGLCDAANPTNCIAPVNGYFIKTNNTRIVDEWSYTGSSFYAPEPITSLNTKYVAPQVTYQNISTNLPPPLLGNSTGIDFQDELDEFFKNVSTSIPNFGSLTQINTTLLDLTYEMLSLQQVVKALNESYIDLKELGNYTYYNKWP
Assay: BLI (Octet RED96): mAb on Protein A biosensors, S protein in solution [panel D]

B1: CoV2-12 (antibody, V domains shown)
VH: QVQLVESGGGVVQPGRSLRLSCVASGFTFSSYAMQWVRQAPGKGLEYVAVVSDDGNMKFYADSVKGRFTISRDNSRNTVSLQMNSLGVEDTAVYYCARENYFWSGSIGGLDYWGQGTLVSVSS
VL: not shown
B1: no binding.
